System: T-2 reactive monoclonal antibody
Experiment: CEIA of various trichothecenes with T-2 reactive monoclonal antibody
Assay type: binding, murine
Conditions: 10% methanol/PBS; T2HS-ovalbumin solid phase

| Compound | Minimal Inhibition (concentration required for first significant inhibition of binding of antibody) [ug/ml] |
| --- | --- |
| CC1=C[C@H]2O[C@@H]3C[C@H]4OC(=O)/C=C\C=C\C(C(C)O)OCCC(C)C(O)C(=O)OC[C@@]2(CC1)[C@]4(C)[C@]31CO1 (some centres unmarked) | > 5000. |
| CC1=C[C@H]2O[C@@H]3C[C@@H](O)[C@](C)([C@@]2(CO)CC1)[C@]31CO1 | 500. |

From patent publication US4772551A (priority 1985, dated 1988)
